Certain results were filed several times, with different values. This is not the full list of results. The source may hold further records. Results that share an entry differ, and nothing given here explains why; some may be repeats, others may stem from another dose, organism or construct than stated.
Tested on: Caco-2 monolayers

For C=CC(C)(C)n1cc(C[C@H]2C(=O)N(C)[C@@H](C[C@@H](C)CO)C(=O)N[C@@H](C)C(=O)N[C@@H]([C@H](OC)c3ccccc3)C(=O)N[C@@H](C(C)C)C(=O)N(C)[C@@H](CC(C)C)C(=O)N[C@@H]([C@H](C)C=C(C)C)C(=O)N2C)c2ccccc21 [Compound 23], the Papp A→B was 19 ×10⁻⁶ cm/s and 3.9 ×10⁻⁶ cm/s.

— PMC10914731, “Homo-BacPROTAC-induced degradation of ClpC1 as a strategy against drug-resistant mycobacteria” (Nature Communications, 2024)
